A mixed list of measured activities; the numbers were collected in NIAID ChemDB.

Common to all: growth or infection tests; organism: Candida albicans; endpoint: EC50

Lines come from different laboratories, so protocols vary. ECn is the concentration giving n% inhibition of infection, replication or growth. Blank or dashed fields: not listed here.

C=C(CCC=C(C)C)[C@@H]1CC[C@@]2(C)O[C@H]2C1 ; strain: ATCC 90028 ; result: >50 µg/mL
C=C(CN1CCOCC1)C(=O)c1ccc(OC)cc1 ; result: 20.71 µM
Cc1onc(-c2ccc(Cl)cc2Cl)c1C=O ; result: 47.91 µg/mL
Clc1ccc(Oc2ccnc(Oc3ccc(Cl)cc3)n2)cc1 ; result: 14.8 µg/mL
COc1cc(CCCOC(=O)c2ccccc2)cc(OC)c1O ; result: 11.41 µg/mL
Brc1ccc(Oc2ccnc(Oc3ccc(Br)cc3)n2)cc1 ; result: 23.6 µg/mL
O=Cc1cc(-c2cccc(Br)c2)no1 ; result: 48.9 µg/mL
C[C@@]1(C=O)CC[C@H](COC2CCCCO2)[C@@]1(C)C(=O)O ; strain: 2005E ; result: 14 µM
CCC(C)C(=O)Oc1ccc(OC)cc1C1OC1C ; strain: ATCC 90028 ; result: >50 µg/mL
O=Cc1cc(-c2ccc(Cl)cc2Cl)on1 ; result: 7.5 µg/mL
C=C(CN(C)C)C(=O)c1ccccc1 ; result: 1.13 µM
C[C@@]1(C=O)CC[C@H](COC(=O)c2ccccc2)[C@@]1(C)C(=O)O ; strain: 2005E ; result: 32 µM
COc1ccc(Oc2ccnc(Oc3ccc(OC)cc3)n2)cc1 ; result: 16.4 µg/mL
C=C(CN(C)C)C(=O)c1ccc(OC)cc1 ; result: 18.11 µM
Cc1onc(-c2ccccc2)c1C=O ; result: >50 µg/mL
CC[C@H](C)/C=C(C)/C=C/C1=CC2=CC3=C(C(C)=O)C(=O)O[C@@]3(C)C(=O)C2=CO1 ; result: 0.6 µg/mL
Cc1cnc(Oc2ccc([N+](=O)[O-])cc2)nc1Oc1ccc([N+](=O)[O-])cc1 ; result: 13.2 µg/mL
O=Cc1cc(-c2c(Cl)cccc2Cl)no1 ; result: 17.42 µg/mL
CC(C)CCOC[C@H]1CC[C@@](C)(C=O)[C@]1(C)C(=O)O ; strain: 2005E ; result: 185 µM
Cc1cnc(Oc2ccccc2)nc1Oc1ccccc1 ; result: 21.6 µg/mL

3 of the rows above, restated:

SMILES,strain,result
O=Cc1cc(-c2c(Cl)cccc2Cl)no1,,17.42 µg/mL
CC(C)CCOC[C@H]1CC[C@@](C)(C=O)[C@]1(C)C(=O)O,2005E,185 µM
Cc1onc(-c2ccc(Cl)cc2Cl)c1C=O,,47.91 µg/mL